Data reported in PMC8481833, “Kinetic Characterization and Inhibitor Screening of Pyruvate Kinase I From Babesia microti” (Frontiers in Microbiology, 2021).

The chains behind the UniProt entries cited, without tags or fusion partners. Where a name states a change or a piece, a line headed by the entry shows the natural chain unless it says otherwise.
UniProt A0A1N6LXR4: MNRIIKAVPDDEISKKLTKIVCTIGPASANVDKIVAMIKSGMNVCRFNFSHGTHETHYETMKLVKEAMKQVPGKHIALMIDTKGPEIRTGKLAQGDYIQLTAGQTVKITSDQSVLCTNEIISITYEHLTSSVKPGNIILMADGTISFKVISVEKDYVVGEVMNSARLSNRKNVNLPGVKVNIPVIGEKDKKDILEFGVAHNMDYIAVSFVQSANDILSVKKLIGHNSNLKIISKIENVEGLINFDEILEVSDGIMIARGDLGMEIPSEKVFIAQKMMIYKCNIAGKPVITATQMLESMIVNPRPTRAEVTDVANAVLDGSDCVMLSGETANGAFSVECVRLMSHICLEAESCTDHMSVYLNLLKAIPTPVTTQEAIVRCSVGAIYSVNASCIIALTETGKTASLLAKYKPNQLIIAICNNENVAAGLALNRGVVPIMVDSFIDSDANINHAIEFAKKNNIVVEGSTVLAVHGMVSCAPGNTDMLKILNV
UniProt I7J7V6: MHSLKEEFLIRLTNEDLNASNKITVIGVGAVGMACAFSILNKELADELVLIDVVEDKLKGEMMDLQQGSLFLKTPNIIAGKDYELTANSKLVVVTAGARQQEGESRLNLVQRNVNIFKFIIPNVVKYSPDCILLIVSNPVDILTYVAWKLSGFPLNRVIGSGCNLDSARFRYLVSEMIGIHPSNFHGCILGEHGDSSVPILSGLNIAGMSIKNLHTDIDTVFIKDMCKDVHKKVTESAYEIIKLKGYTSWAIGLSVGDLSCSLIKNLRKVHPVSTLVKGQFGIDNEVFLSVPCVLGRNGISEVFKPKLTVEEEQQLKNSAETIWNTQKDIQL

Tests used:
[1] = molecular target: rBmPYKI (Babesia microti, UniProt A0A1N6LXR4); assay: rBmPYKI inhibition, indirect coupled LDH assay; format: biochemical
[2] = molecular target: rBmLDH (Babesia microti, UniProt I7J7V6); assay: rBmLDH inhibition (LDH reaction of the coupled assay); format: biochemical

Question: With Disodium monofluorophosphate as the substance, how does the “effect on the activity of rBmPYKI” value [1] read?
Answer: The value was “no effect”.

Question: And the IC50 ([1]; read-out: IC50 rBmPYKI, dash = no effect)?
Answer: Its IC50 is over 1950 µM.

Question: What about the “effect on rBmLDH / LDH reaction activity” value [2] of the same substance?
Answer: The value was “no effect”.

Question: What about the IC50 ([2]; read-out: IC50 rBmLDH, dash = LDH reaction not affected / no effect) of the same substance?
Answer: The IC50 was over 1950 µM.
